# Experimental data as given in paper PMC4658428 (Frontiers in Microbiology, 2015).
# What was measured:
# [1] = molecular target: LdtR E33A (Liberibacter asiaticus)
# [2] = molecular target: LdtR F64A (Liberibacter asiaticus)
# [3] = molecular target: LdtR L61A (Liberibacter asiaticus)
# [4] = molecular target: LdtR N65A (Liberibacter asiaticus)
# [5] = molecular target: LdtR R30A (Liberibacter asiaticus)
# [6] = molecular target: LdtR R34A (Liberibacter asiaticus)
# [7] = molecular target: LdtR R37A (Liberibacter asiaticus)
# [8] = molecular target: LdtR T43A (Liberibacter asiaticus)
# [9] = molecular target: LdtR V26A (Liberibacter asiaticus)
# [10] = molecular target: LdtR Y81A (Liberibacter asiaticus)
# [11] = molecular target: LdtR Y82A (Liberibacter asiaticus)
# [12] = molecular target: LdtR Y131A (Liberibacter asiaticus)
# [13] = tested on: LdtR N65A (Liberibacter asiaticus); experiment: EMSA
# [14] = tested on: LdtR R30A (Liberibacter asiaticus); experiment: EMSA
# [15] = tested on: LdtR F64A (Liberibacter asiaticus); experiment: EMSA
# [16] = tested on: LdtR L61A (Liberibacter asiaticus); experiment: EMSA
# [17] = tested on: LdtR T43A (Liberibacter asiaticus); experiment: EMSA
# [18] = tested on: LdtR Y131A (Liberibacter asiaticus); experiment: EMSA
substance,measurement,setting,value
LdtR E33A,stoichiometry N,[1],2
LdtR F64A,stoichiometry N,[2],2
LdtR L61A,stoichiometry N,[3],2
LdtR N65A,stoichiometry N,[4],2
LdtR R30A,stoichiometry N,[5],2
LdtR R34A,stoichiometry N,[6],2
LdtR R37A,stoichiometry N,[7],2
LdtR T43A,stoichiometry N,[8],2
LdtR V26A,stoichiometry N,[9],2
LdtR Y81A,stoichiometry N,[10],2
LdtR Y82A,stoichiometry N,[11],2
LdtR Y131A,stoichiometry N,[12],2
PldtP,K half,[13],400 nM
same,K half,[14],400 nM
same,K half,[15],400 nM
same,K half,[16],400 nM
same,K half,[17],400 nM
same,K half,[18],400 nM
